Reference: patent US20230321082A1, “USE OF TRIAZOLE ANALOGUES FOR INHIBITION OF A TRIPARTITE VOR PROTEIN COMPLEX IN MULTICELLULAR ORGANISMS” (TECHNISCHE UNIVERSITÄT DRESDEN, priority 2020, published 2023)

Tested on: SW480 cells expressing ER-RFP
Assay: Subcellular localization of fluorescent compound, confocal microscopy
Format: cell-based
Settings: 2 μM, 1 hour, washed, then incubated

CCn1ncn(-c2ccc(Nc3ccc([N+](=O)[O-])c4nonc34)cc2)c1=O [compound 24]
accumulation in perinuclear zone (fluorescence intensity): progressive accumulation
presence inside the NEI: inside the NEI
